Measurements: patent US20200040064A1 (OHIO STATE INNOVATION FOUNDATION, published 2020)

Legend:
[1] = biological target: T1, CMV gp68 on transfected glioma cells (CMV, UniProt P16739 24-345); assay: flow cytometry, fluorescently labeled CD16a alone on transfected glioma cells
T1 construct: whole, on cells; also called 68 kDa-glycoprotein
T1 sequence: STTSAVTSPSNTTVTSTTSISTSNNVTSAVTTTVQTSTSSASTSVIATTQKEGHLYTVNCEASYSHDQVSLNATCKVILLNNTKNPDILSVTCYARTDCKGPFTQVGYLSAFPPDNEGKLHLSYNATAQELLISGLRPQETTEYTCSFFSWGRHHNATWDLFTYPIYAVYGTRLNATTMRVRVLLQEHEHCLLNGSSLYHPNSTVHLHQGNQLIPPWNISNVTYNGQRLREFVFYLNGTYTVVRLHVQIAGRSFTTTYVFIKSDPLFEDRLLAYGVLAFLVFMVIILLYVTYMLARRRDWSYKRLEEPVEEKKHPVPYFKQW

[2] = biological target: T2, HSV1 gE/gI complex on glioma cells expressing both Us7 and Us8 (glioma Us7+Us8) (herpes simplex virus 1 (F strain)); assay: flow cytometry, biotinylated CD16a + APC-streptavidin on transfected glioma cells, without IgG
T2 construct: whole, on cells; Genes were expressed upstream of T2A-GFP

B1: biotinylated CD16a (extracellular domain of human FcγRIIIA/CD16a) (receptor)
chain: not shown
notes: Detected with APC-streptavidin; also called fluorescently labeled CD16a
Question: What does the source list for B1?
Answer: binding result [1]: no binding; binding result [2]: no binding
